Assay results published in US20120027677A1.

Target: PrP^Sc, pathogenic form of the human prion protein (from CJD brain homogenate) (human), P04156

GGGQWNKPSKPKTN [peptide of SEQ ID NO: 14]
Mean (% of 68): 5.58%
Mean (ELISA signal): 4.74 RLU
